A mixed list of measured activities; the numbers were collected in NIAID ChemDB.

All rows: target-level tests

a–b is a range or a potency band. Rows are shuffled and stem from different studies. ICn: concentration for n% inhibition. Blank or dashed fields: not listed here. Percent inhibition refers to the dose given; in toxicity tests it is the harm to the cells.

compound | strain | endpoint | dose | target | agent | result
CC(NC(=O)c1ccc2c(c1)nc(-c1ccoc1)n2C1CCCCC1)C(=O)Nc1cc(C(=O)O)ccc1O | - | IC50 | - | NS5B polymerase | Hepatitis C virus | 0.5–5 µM
O=C(CN1CC(c2ccccc2)CC1=O)Nc1ccsc1-c1nc(C(=O)O)c(O)c(=O)[nH]1 | - | IC50 | - | HCV polymerase | Hepatitis C virus | <25 µM
C=C[C@@H]1C[C@]1(NC(=O)[C@@H]1C[C@@H](Oc2cc(-c3ccccc3)nc3cc(OC)ccc23)CN1C(=O)[C@@H](NC(=O)OC(C)(C)C)C(C)(C)C)C(=O)NS(=O)(=O)c1ccc(F)cc1 | BMS | IC50 | - | NS3/NS4A protease | Hepatitis C virus | <0.05 µM
O=C(N[C@@H](CO)C(=O)O)c1cc2nc(-c3ccc(Cl)cc3)cc(-c3ccc(Oc4ccccc4)cc3)n2n1 | - | IC50 | - | RNA-dependent RNA polymerase | Hepatitis C virus | 1–10 µM
O=C(NCc1ccc(Cl)s1)Nc1cscc1-c1nc(C(=O)O)c(O)c(=O)[nH]1 | - | IC50 | - | HCV polymerase | Hepatitis C virus | <25 µM
COc1nc(NCCN2CCOCC2)nc(Nc2ccc3cn[nH]c3c2)n1 | - | inhibition | 0.1 µg/mL | DNA polymerase | Hepatitis B virus | 54%
CCOC(=O)c1ccc2c(c1)nc(-c1ccc3nc(-c4cc(OC)ccc4-c4ccc(F)cc4)ccc3c1)n2C1CCCCC1 | - | inhibition | 33 µM | NS5B polymerase | Hepatitis C virus | 64.68%
C=CC1CC1(NC(=O)[C@@H]1C[C@@H](Oc2cc(-c3ccccc3)nc3cc(OC)ccc23)CN1C(=O)[C@H](CC(C)C)NC(=O)OC(C)(C)C)C(=O)NS(=O)(=O)C1CC1 | BMS | IC50 | - | NS3/NS4A protease | Hepatitis C virus | <0.05 µM
C=CC1CC1(NC(=O)[C@@H]1C[C@@H](OC(=O)Nc2ccccc2N2CCCCC2)CN1C(=O)[C@@H](NC(=O)OC(C)(C)C)C(C)(C)C)C(=O)NS(=O)(=O)C1CC1 | BMS/H77C/J416S | IC50 | - | NS3/NS4A protease | Hepatitis C virus | <0.1 µM
CC(C)(C)OC(N)=NCCNc1cc(-c2ccccc2)nc2ccc(-c3nc4cc(C(=O)O)ccc4n3C3CCCCC3)cc12 | - | inhibition | 33 µM | NS5B polymerase | Hepatitis C virus | 95.64%
CSc1ncc(C(=O)NCCO)c(Nc2ccc3cn[nH]c3c2)n1 | - | IC50 | - | Reverse transcription | Hepatitis B virus | 0.01 µg/mL
C=CC1CC1(NC(=O)[C@@H]1C[C@@H](OC(=O)N2CCCC2)CN1C(=O)[C@@H](NC(=O)OC(C)(C)C)C(C)(C)C)C(=O)NS(=O)(=O)C1CC1 | BMS/H77C/J416S | IC50 | - | NS3/NS4A protease | Hepatitis C virus | 0.1–1 µM
O=C(O)c1ccc2c(c1)nc(-c1ccc3nc(-c4cccc(OCC(=O)N5CCCC5)c4)ccc3c1)n2C1CCCCC1 | - | inhibition | 100 µM | NS5B polymerase | Hepatitis C virus | 96.99%
C=CCN(CC=C)C(=O)O[C@@H]1C[C@@H](C(=O)NC2(C(=O)NS(=O)(=O)C3CC3)CC2C=C)N(C(=O)[C@@H](NC(=O)OC(C)(C)C)C(C)(C)C)C1 | BMS/H77C/J416S | IC50 | - | NS3/NS4A protease | Hepatitis C virus | 0.1–1 µM
CSc1ncc(C(=O)NCCO)c(Nc2ccc3[nH]ncc3c2)n1 | - | IC50 | - | Reverse transcription | Hepatitis B virus | ~0.01 µg/mL
C=CC1CC1(NC(=O)[C@@H]1C[C@@H](OC(=O)N(CC)CC)CN1C(=O)[C@@H](NC(=O)OC(C)(C)C)C(C)(C)C)C(=O)NS(=O)(=O)C1CC1 | BMS/H77C/J416S | IC50 | - | NS3/NS4A protease | Hepatitis C virus | <0.1 µM
O=C(NC(Cc1ccc(C(=O)c2ccccc2)cc1)C(=O)O)c1ccc2c(c1)nc(-c1ccc3nc(-c4ccccc4)cnc3c1)n2C1CCCCC1 | - | inhibition | 100 µM | NS5B polymerase | Hepatitis C virus | 98.41%
O=C(O)c1nc(-c2ccccc2NS(=O)(=O)/C=C/c2ccccc2)[nH]c(=O)c1O | - | IC50 | - | HCV polymerase | Hepatitis C virus | <100 µM
CN(C(=O)c1ccc2cc(-c3nc4cc(C(=O)O)ccc4n3C3CCCCC3)ccc2n1)c1ccc(Cl)cc1 | - | inhibition | 33 µM | NS5B polymerase | Hepatitis C virus | 95.35%
O=C(Nc1ccc2cn[nH]c2c1)c1cc(NCCN2CCOCC2)c(F)cc1F | - | inhibition | 1 µg/mL | Reverse transcriptase | Hepatitis B virus | 40%
CC(NC(=O)c1ccc2c(c1)nc(-c1ccoc1)n2C1CCCCC1)C(=O)Nc1ccccc1-c1ccc(C(=O)O)o1 | - | IC50 | - | NS5B polymerase | Hepatitis C virus | 0.5–5 µM
O=C(Nc1ccc2[nH]ncc2c1)c1cc(NCCCn2ccnc2)c(F)cc1F | - | IC50 | - | Reverse transcriptase | Hepatitis B virus | 0.01–0.1 µg/mL
N#Cc1cnn2c(-c3ccccc3)c(-c3ccccc3)cnc12 | - | IC50 | - | RNA-dependent RNA polymerase | Hepatitis C virus | >10 µM
CC[C@@H](C=O)NC(=O)[C@@H]1C[C@@H](OCc2ccccc2)CN1C(=O)[C@@H](NC(=O)[C@H](Cc1ccc([N+](=O)[O-])cc1)NC(=O)c1cnccn1)C(C)C | - | Ki | - | NS3 protease | Hepatitis C virus | 1–100 µM
COC(=O)[C@H](NC(=O)c1cnc(SC)nc1Nc1ccc2[nH]ncc2c1)[C@@H](C)O | - | IC50 | - | Reverse transcription | Hepatitis B virus | ~1 µg/mL
CC[C@@H](C=O)NC(=O)[C@@H]1C[C@@H](OCc2ccccc2)CN1C(=O)[C@@H](NC(=O)C(C#N)=C1CCCCC1)C(C)C | - | Ki | - | NS3 protease | Hepatitis C virus | 1–100 µM
C=C[C@@H]1C[C@]1(NC(=O)[C@@H]1C[C@@H](Oc2cc(-c3ccccc3)nc3cc(OC)ccc23)CN1C(=O)[C@@H](NC(=O)OC(C)(C)C)C(C)(C)C)C(=O)NS(=O)(=O)CCCC | BMS | IC50 | - | NS3/NS4A protease | Hepatitis C virus | <0.05 µM
O=C(O)/C=C/c1ccc(NC(=O)C2(NC(=O)c3ccc4c(c3)nc(-c3cccc5c3OCO5)n4C3CCCCC3)CCCC2)cc1 | - | IC50 | - | NS5B polymerase | Hepatitis C virus | 0.5–5 µM
COc1ccc(CCC(=O)Nc2cccc(-c3nc(C(=O)O)c(O)c(=O)[nH]3)c2)cc1OC | - | IC50 | - | HCV polymerase | Hepatitis C virus | <100 µM
Cc1cc(=O)oc2cc(NC(=O)[C@@H](C)NC(=O)c3ccc4c(c3)nc(-c3ccoc3)n4C3CCCCC3)ccc12 | - | IC50 | - | NS5B polymerase | Hepatitis C virus | 0.5–5 µM
CCN(CCO)c1cc(C(=O)Nc2ccc3cn[nH]c3c2)c(F)cc1F | - | inhibition | 0.1 µg/mL | Reverse transcriptase | Hepatitis B virus | 56%
C=C[C@@H]1C[C@]1(NC(=O)[C@@H]1C[C@@H](Oc2cc(-c3ccccc3)nc3cc(OC)ccc23)CN1C(=O)[C@@H](NC(=O)OC(C)(C)C)C(C)C)C(=O)NS(=O)(=O)C(C)C | BMS | IC50 | - | NS3/NS4A protease | Hepatitis C virus | <0.05 µM
COc1nc(NCCCN2CCCC2=O)nc(Nc2ccc3cn[nH]c3c2)n1 | - | inhibition | 1 µg/mL | DNA polymerase | Hepatitis B virus | 43%
C=C[C@@H]1C[C@]1(NC(=O)[C@@H]1C[C@@H](Oc2cc(-c3ccccc3)nc3cc(OC)ccc23)CN1C(=O)[C@@H](NS(C)(=O)=O)C(C)(C)C)C(=O)NS(=O)(=O)C1CC1 | BMS | IC50 | - | NS3/NS4A protease | Hepatitis C virus | <0.05 µM
C=CC1CC1(NC(=O)[C@@H]1C[C@@H](OC(=O)N(C)c2ccccc2)CN1C(=O)[C@@H](NC(=O)OC(C)(C)C)C(C)(C)C)C(=O)NS(=O)(=O)C1CC1 | BMS/H77C/J416S | IC50 | - | NS3/NS4A protease | Hepatitis C virus | 0.1–1 µM
CC[C@@H](C=O)NC(=O)[C@@H]1C[C@@H](OCc2ccccc2)CN1C(=O)[C@@H](NC(=O)[C@@H](NC(=O)Nc1cc(C(=O)O)cc(C(=O)O)c1)C(C)C)C(C)C | - | Ki | - | NS3 protease | Hepatitis C virus | 1–100 µM
O=C(Nc1ccc2cn[nH]c2c1)c1cc(NCCO)c(F)cc1F | - | IC50 | - | Reverse transcriptase | Hepatitis B virus | 0.1–1 µg/mL
O=C(O)c1cnn2c(C3CCCCC3)c(-c3cccc(Oc4cccc(C(F)(F)F)c4)c3)cnc12 | - | IC50 | - | RNA-dependent RNA polymerase | Hepatitis C virus | 1–10 µM
CN(C)c1cc(-c2ccccc2)nc2ccc(-c3nc4cc(C(=O)O)ccc4n3C3CCCCC3)cc12 | - | inhibition | 33 µM | NS5B polymerase | Hepatitis C virus | 76.46%
O=C(O)c1cc2nc(-c3ccc(F)cc3)cc(-c3cccc(F)c3)n2n1 | - | IC50 | - | RNA-dependent RNA polymerase | Hepatitis C virus | >10 µM
COc1cc(O[C@@H]2C[C@@H](C(=O)NC3(C(=O)NS(=O)(=O)C4CC4)CC34CCC4)N(C(=O)[C@@H](NC(=O)OC(C)(C)C)C(C)C)C2)c2ccc(-c3ccccc3)cc2n1 | BMS | IC50 | - | NS3/NS4A protease | Hepatitis C virus | <5 µM
COc1nc(Nc2ccc3[nH]ncc3c2)nc(N2CCC(O)CC2)n1 | - | inhibition | 1 µg/mL | DNA polymerase | Hepatitis B virus | 43%
O=C(O)/C=C/c1ccc(NC(=O)C2(NC(=O)c3ccc4c(c3)nc(-c3ccco3)n4C3C[C@H]4CC[C@@H]3C4)CCCC2)cc1 | - | IC50 | - | NS5B polymerase | Hepatitis C virus | <0.5 µM
CC[C@@H](C=O)NC(=O)[C@@H]1C[C@@H](OC(=O)Nc2cccc(Cl)c2Cl)CN1C(=O)[C@@H](NC(=O)[C@@H](NC(=O)c1cnccn1)C(C)C)C(C)C | - | Ki | - | NS3 protease | Hepatitis C virus | 1–100 µM
Fc1ccc(C(F)(F)F)cc1COc1ccc(-c2cnc3c(-c4nn[nH]n4)cnn3c2C2CCCCC2)cc1 | - | IC50 | - | RNA-dependent RNA polymerase | Hepatitis C virus | 1–10 µM
CC[C@@H](C=O)NC(=O)[C@@H]1C[C@@H](OCc2ccccc2)CN1C(=O)[C@@H](NC(=O)CCc1ccccc1)C(C)C | - | Ki | - | NS3 protease | Hepatitis C virus | >100 µM
C[C@H](NC(=O)c1cnn2c(C3CCCCC3)c(-c3ccc(F)cc3)cnc12)C(=O)O | - | IC50 | - | RNA-dependent RNA polymerase | Hepatitis C virus | <1 µM
C[C@@H](O)C(NC(=O)c1ccc2c(c1)nc(-c1ccc3nc(-c4ccccc4)cnc3c1)n2C1CCCCC1)C(=O)O | - | inhibition | 100 µM | NS5B polymerase | Hepatitis C virus | 97.87%
O=C(Nc1ccsc1-c1nc(C(=O)O)c(O)c(=O)[nH]1)OC1CCCC1 | - | IC50 | - | HCV polymerase | Hepatitis C virus | <25 µM
CSc1ncc(C(=O)N(C)C)c(Nc2ccc3cn[nH]c3c2)n1 | - | IC50 | - | Reverse transcription | Hepatitis B virus | <1 µg/mL
COc1nc(NCCN(C)C)nc(Nc2ccc3[nH]ncc3c2)n1 | - | inhibition | 10 µg/mL | Nonstructural protein 5B | Hepatitis C virus | 46%
COC(=O)c1cccc(COc2ccc(-c3cnc4c(-c5nn[nH]n5)cnn4c3C3CCCCC3)cc2)c1 | - | IC50 | - | RNA-dependent RNA polymerase | Hepatitis C virus | <1 µM
NS(=O)(=O)c1ccc(CCNc2cc(C(=O)Nc3ccc4cn[nH]c4c3)c(F)cc2F)cc1 | - | inhibition | 1 µg/mL | Reverse transcriptase | Hepatitis B virus | 75%
COC(=O)[C@@H]1CCCN1c1nc(Nc2ccc3cn[nH]c3c2)nc(OC)n1 | - | inhibition | 0.1 µg/mL | DNA polymerase | Hepatitis B virus | 20%
COC(=O)[C@H](NC(=O)c1cnc(SC)nc1Nc1ccc2cn[nH]c2c1)[C@@H](C)O | - | IC50 | - | Reverse transcription | Hepatitis B virus | 0.01 µg/mL
COC(=O)c1cc(NC(=O)C2(NC(=O)c3ccc4c(c3)nc(-c3ccoc3)n4C3CCCCC3)CCCC2)cc(C(=O)O)c1 | - | IC50 | - | NS5B polymerase | Hepatitis C virus | 0.5–5 µM
Nc1ccc(-c2ccc3cc(-c4nc5cc(C(=O)O)ccc5n4C4CCCCC4)ccc3n2)cc1 | - | inhibition | 33 µM | NS5B polymerase | Hepatitis C virus | 85.08%
C=C[C@@H]1C[C@]1(NC(=O)[C@@H]1C[C@@H](Oc2cc(-c3ccccc3)nc3cc(OC)ccc23)CN1C(=O)[C@@H](NC(=O)C(=O)OC)C(C)(C)C)C(=O)NS(=O)(=O)C1CC1 | BMS | IC50 | - | NS3/NS4A protease | Hepatitis C virus | <0.05 µM
CC(NC(=O)Nc1cscc1-c1nc(C(=O)O)c(O)c(=O)[nH]1)c1c(F)cccc1F | - | IC50 | - | HCV polymerase | Hepatitis C virus | <25 µM
C=C[C@@H]1C[C@]1(NC(=O)[C@@H]1C[C@@H](Oc2cc(-c3ccccc3)nc3cc(OC)ccc23)CN1C(=O)[C@@H](NC(=O)OC(C)(C)C)C(C)(C)C)C(=O)NS(=O)(=O)c1ccc(OC(F)(F)F)cc1 | BMS | IC50 | - | NS3/NS4A protease | Hepatitis C virus | <0.5 µM
O=C(Nc1cccc(F)c1)Nc1cccc(-c2nc(C(=O)O)c(O)c(=O)[nH]2)c1 | - | IC50 | - | HCV polymerase | Hepatitis C virus | <100 µM
C=C[C@@H]1C[C@@]1(NC(=O)[C@@H]1C[C@@H](Oc2cc(-c3ccccc3)nc3cc(OC)ccc23)CN1C(=O)[C@H](CC1CCCCC1)NC(=O)OC(C)(C)C)C(=O)NS(=O)(=O)C(F)(F)F | BMS | IC50 | - | NS3/NS4A protease | Hepatitis C virus | <50 µM
Cn1cccc1-c1nc2cc(C(=O)NC3(C(=O)Nc4ccc(/C=C/C(=O)O)cc4)CCCC3)ccc2n1C1CCC1 | - | IC50 | - | NS5B polymerase | Hepatitis C virus | 0.5–5 µM
C=CC1CC1(NC(=O)[C@@H]1C[C@@H](OC(=O)Nc2ccccc2Cl)CN1C(=O)[C@@H](NC(=O)OC(C)(C)C)C(C)(C)C)C(=O)NS(=O)(=O)C1CC1 | BMS/H77C/J416S | IC50 | - | NS3/NS4A protease | Hepatitis C virus | <0.1 µM